# Laboratory results taken from US20190351039A1, “IMMUNOMODULATORY THERAPEUTIC MRNA COMPOSITIONS ENCODING ACTIVATING ONCOGENE MUTATION PEPTIDES” (priority 2017, published 2019).
# Tested on: individual A*11 viral epitopes
# Assay type: in vivo, A11-transgenic mice
# Settings: mice immunized with A11-viral epitope concatemer; day 21 spleen cells restimulated ex vivo
row,Sequence,antigen-specific CD8+ T cell responses to the individual viral epitope
1,ATIGTAMYK [EBV BRLF1],observed
2,AVDLSHFLK [HIV NEF],observed
3,SIIPSGPLK [FLU],observed
